{"source": "PubChem BioAssay AID1259414 (Drosophila RNAi Screening Center, 2018)", "purpose": "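Fly genes that alter Wolbachia amount inside host cells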 (primary screen)", "cells": "Drosophila JW18 cells infected with Wolbachia", "reagent": "long dsRNA against Drosophila genes, 0.25 µg dsRNA per well of a 384-well plate", "time to read-out": "5 days", "treatment": "cells persistently infected with Wolbachia before knock-down; no added drug", "detection": "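Automated imaging of bacterial rRNA staining divided by host cell count, reported as plate-normalised robust z-score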", "direction": "Wolbachia per cell robust z: higher = more Wolbachia per host cell than the plate typical", "rule for the call": "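Hit when robust z is 1.5 or more, or -1.5 or less, in at least two of three replicates; excludes dsRNAs with several or no targets, genes not expressed in JW18 and well A1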", "note": "The deposit covers about 24,000 reagents; this is an unselected part of those with a known target gene and a result. Over the whole deposit, about 1,210 (5%) are marked active. 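Inactive calls also include excluded dsRNAs with several or no targets, genes unexpressed in JW18, and well A1, regardless of score.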 The numbers tell different reagents against one gene apart."}
{"predicted target":"ORY (Occludin-Related Y)","dsRNA no.":1,"Wolbachia per cell robust z, rep 1":-0.173,"Wolbachia per cell robust z, rep 2":-0.685,"Wolbachia per cell robust z, rep 3":-0.493,"outcome":"inactive"}
{"predicted target":"Kpc1 (Kip1 ubiquitination-promoting complex subunit 1)","dsRNA no.":1,"Wolbachia per cell robust z, rep 1":0.413,"Wolbachia per cell robust z, rep 2":0.846,"Wolbachia per cell robust z, rep 3":2.02,"outcome":"inactive"}
{"predicted target":"crc (cryptocephal)","dsRNA no.":1,"Wolbachia per cell robust z, rep 1":0.359,"Wolbachia per cell robust z, rep 2":-1.2,"Wolbachia per cell robust z, rep 3":1.02,"outcome":"inactive"}
{"predicted target":"Ufd4 (Ubiquitin fusion-degradation 4-like)","dsRNA no.":1,"Wolbachia per cell robust z, rep 1":0.539,"Wolbachia per cell robust z, rep 2":0.715,"Wolbachia per cell robust z, rep 3":-2.93,"outcome":"inactive"}
{"predicted target":"trk (trunk)","dsRNA no.":1,"Wolbachia per cell robust z, rep 1":0.967,"Wolbachia per cell robust z, rep 2":-3.31,"Wolbachia per cell robust z, rep 3":0.796,"outcome":"inactive"}
{"predicted target":"Vml (Vitelline membrane-like)","dsRNA no.":1,"Wolbachia per cell robust z, rep 1":0.465,"Wolbachia per cell robust z, rep 2":0.274,"Wolbachia per cell robust z, rep 3":-0.471,"outcome":"inactive"}
{"predicted target":"Vml (Vitelline membrane-like)","dsRNA no.":2,"Wolbachia per cell robust z, rep 1":0.209,"Wolbachia per cell robust z, rep 2":0.912,"Wolbachia per cell robust z, rep 3":0.815,"outcome":"inactive"}
{"predicted target":"Vml (Vitelline membrane-like)","dsRNA no.":3,"Wolbachia per cell robust z, rep 1":-0.818,"Wolbachia per cell robust z, rep 2":-0.707,"Wolbachia per cell robust z, rep 3":-0.0462,"outcome":"inactive"}
{"predicted target":"Vml (Vitelline membrane-like)","dsRNA no.":4,"Wolbachia per cell robust z, rep 1":1.22,"Wolbachia per cell robust z, rep 2":1.1,"Wolbachia per cell robust z, rep 3":1.28,"outcome":"inactive"}
{"predicted target":"CG13581","dsRNA no.":1,"Wolbachia per cell robust z, rep 1":-0.782,"Wolbachia per cell robust z, rep 2":-0.502,"Wolbachia per cell robust z, rep 3":0.14,"outcome":"inactive"}
{"predicted target":"Tl (Toll)","dsRNA no.":1,"Wolbachia per cell robust z, rep 1":0.89,"Wolbachia per cell robust z, rep 2":0.804,"Wolbachia per cell robust z, rep 3":0.865,"outcome":"inactive"}
{"predicted target":"Tl (Toll)","dsRNA no.":2,"Wolbachia per cell robust z, rep 1":-0.924,"Wolbachia per cell robust z, rep 2":-0.561,"Wolbachia per cell robust z, rep 3":-0.454,"outcome":"inactive"}
{"predicted target":"CG13126","dsRNA no.":1,"Wolbachia per cell robust z, rep 1":0.984,"Wolbachia per cell robust z, rep 2":-0.638,"Wolbachia per cell robust z, rep 3":-3.94,"outcome":"inactive"}
{"predicted target":"CG13126","dsRNA no.":2,"Wolbachia per cell robust z, rep 1":-0.393,"Wolbachia per cell robust z, rep 2":0.468,"Wolbachia per cell robust z, rep 3":0.53,"outcome":"inactive"}

2 of these entries in another layout.
| predicted target | dsRNA no. | Wolbachia per cell robust z, rep 1 | Wolbachia per cell robust z, rep 2 | Wolbachia per cell robust z, rep 3 | outcome |
| --- | --- | --- | --- | --- | --- |
| trk (trunk) | 1 | 0.967 | -3.31 | 0.796 | inactive |
| Vml (Vitelline membrane-like) | 1 | 0.465 | 0.274 | -0.471 | inactive |

Additional records follow:
{"predicted target":"Pp1alpha-96A (Protein phosphatase 1alpha at 96A)","dsRNA no.":1,"Wolbachia per cell robust z, rep 1":-0.487,"Wolbachia per cell robust z, rep 2":-2.92,"Wolbachia per cell robust z, rep 3":0.398,"outcome":"inactive"}
{"predicted target":"Pp1alpha-96A (Protein phosphatase 1alpha at 96A)","dsRNA no.":2,"Wolbachia per cell robust z, rep 1":0.965,"Wolbachia per cell robust z, rep 2":0.277,"Wolbachia per cell robust z, rep 3":0.448,"outcome":"inactive"}
{"predicted target":"Pp1alpha-96A (Protein phosphatase 1alpha at 96A)","dsRNA no.":3,"Wolbachia per cell robust z, rep 1":-0.752,"Wolbachia per cell robust z, rep 2":0.999,"Wolbachia per cell robust z, rep 3":-0.732,"outcome":"inactive"}
{"predicted target":"RpL15 (Ribosomal protein L15)","dsRNA no.":1,"Wolbachia per cell robust z, rep 1":1.48,"Wolbachia per cell robust z, rep 2":-0.613,"Wolbachia per cell robust z, rep 3":-0.424,"outcome":"inactive"}
{"predicted target":"CG11696","dsRNA no.":1,"Wolbachia per cell robust z, rep 1":-0.0729,"Wolbachia per cell robust z, rep 2":-1.44,"Wolbachia per cell robust z, rep 3":0.222,"outcome":"inactive"}
{"predicted target":"HisRS (Histidyl-tRNA synthetase)","dsRNA no.":1,"Wolbachia per cell robust z, rep 1":0.983,"Wolbachia per cell robust z, rep 2":-1.41,"Wolbachia per cell robust z, rep 3":0.862,"outcome":"inactive"}
{"predicted target":"CG31717","dsRNA no.":1,"Wolbachia per cell robust z, rep 1":-1.27,"Wolbachia per cell robust z, rep 2":-1.41,"Wolbachia per cell robust z, rep 3":-0.902,"outcome":"inactive"}
{"predicted target":"CG31717","dsRNA no.":2,"Wolbachia per cell robust z, rep 1":1.1,"Wolbachia per cell robust z, rep 2":-1.57,"Wolbachia per cell robust z, rep 3":0.118,"outcome":"inactive"}
{"predicted target":"Cog6 (Component of oligomeric golgi complex 6)","dsRNA no.":1,"Wolbachia per cell robust z, rep 1":1.54,"Wolbachia per cell robust z, rep 2":0.341,"Wolbachia per cell robust z, rep 3":0.958,"outcome":"inactive"}
{"predicted target":"Cog6 (Component of oligomeric golgi complex 6)","dsRNA no.":2,"Wolbachia per cell robust z, rep 1":1.67,"Wolbachia per cell robust z, rep 2":0.543,"Wolbachia per cell robust z, rep 3":0.337,"outcome":"inactive"}
